Reference: US8158575B2, “Agent for the prevention and treatment of sexually transmitted diseases-I” (priority 2001, dated 2012)

Legend:
Assay type in all cases: cell-based
[1] = system: HIV-1 RoJo; test: PBMC antiviral assay (RT activity); settings: therapeutic index
Experimental: (§1) Human immunodeficiency virus type 1 (HIV-1) strain RoJo is a low passage pediatric isolate derived in the laboratories of Southern Research Institute (SRI). The SHIV89.6pd was obtained from Mark Lewis at SRI and stocks grown in human PBMCs for antiviral testing.
(§2) Peripheral blood monocular cells (PBMCs) were obtained from normal hepatitis and HIV-1 negative donors by ficoll hypaque gradient separation. Briefly, anti-coagulated blood was diluted 1:1 with Dulbecco's phosphate buffered saline without Ca^++ and Mg^++ (PBS) and layered over 14 mL of Lymphocyte separation media in a 50 ml centrifuge tube. Tubes were then centrifuged for 30 minutes at 600×g. Banded PBLs were gently aspirated from the resulting interface and subsequently washed 2× with PBS by low speed centrifugation. The mononuclear cells were counted, viability determined by Trypan Blue dye exclusion and resuspended in RPMI 1640 medium supplemented with 15% FBS (heat inactivated), 2 mM L-glutamine, 100 U/mL penicillin, 100 µg/mL streptomycin, and 10 µg/mL gentamycin with 2 µg/mL phytohemagluttin (PHA) at 1×10^6 cells/mL. The cells were cultured for 48 to 72 h at 37° C., 5% CO2. Following incubation, cells were collected by centrifugation, washed and resuspended in RPMI 1640 supplemented with 15% FBS (heat inactivated), 2 mM L-glutamine, 100 U/mL penicillin, 100 µg/mL streptomycin, and 10 µg/mL gentamycin with 20 U/mL recombinant IL-2 (R & D Systems, Minneapolis, Minn.). IL-2 was included in the culture medium to maintain the cell division initiated by the PHA mitogenic stimulation. The cells were cultured in IL-2 for 72 hours and then used for viral challenge.
(§3) Human peripheral blood mononuclear cells from a minimum of 2 donors, that have been blasted with PHA and IL-2, were counted, viability determined by Trypan Blue dye exclusion and mixed in equal ratios. Pooled donors were used to minimize the variability observed between individual donors which results from quantitative and qualitative differences in HIV infection and overall response to the PHA and IL-2 of primary lymphocyte populations. The cells were resuspended at 1×10^6 cells/mL in RPMI 1640 without phenol red supplemented with 15% Fetal Bovine Serum (heat inactivated), 2 mM L-glutamine, 100 U/mL penicillin, 100 μg/mL streptomycin, 10 μg/mL gentamycin and IL-2 (20 U/mL, R&D Systems, Minneapolis, Minn.). […] The assay was incubated for 6 days in a humidified atmosphere at 37° C., 5% CO2, after which supernatants were collected, for analysis of RT activity and sister plates analyzed for cell viability by MTS dye reduction. […]
(§4) Reverse transcriptase activity was measured in cell-free supernatants. […]

[2] = system: SHIV 89.6pd; test: PBMC antiviral assay (RT activity); settings: therapeutic index
Experimental: as §1, §2, §3, §4

[3] = system: SK1 clinical isolate of HIV-1; test: CD4-independent HIV transmission inhibition assay (H9-SK1 to ME180 cells, p24 ELISA)
[4] = system: SK1 clinical isolate of HIV-1; test: CD4-dependent HIV transmission inhibition assay (H9/SK-1 to GHOST(3) X4/R5 cells, cell-associated p24)
[5] = TC50/IC50, Exp. 2, without mucin
[6] = TC50/IC50, Exp. 1, without mucin

| Compound | HIV-1 RoJo Infected PBMCs TI [1] | SHIV 89.6pd Infected PBMCs TI [2] | CD4-Independent Transmission Assay TI ([3]; TC50/IC50, Exp. 2, with mucin) | CD4-Independent Transmission Assay TI [3, 5] | CD4-Dependent Transmission Assay TI [4, 6] | CD4-Dependent Transmission Assay TI ([4]; TC50/IC50, Exp. 2, with mucin) | CD4-Dependent Transmission Assay TI [4, 5] |
| --- | --- | --- | --- | --- | --- | --- | --- |
| Cc1cn([C@H]2C[C@H](N=[N+]=[N-])[C@@H](CO)O2)c(=O)[nH]c1=O [AZT] | >200 | >500 |  |  |  |  |  |
| BHAlyslys2lys4lys8lys16[NH—CO—CH2)O-3,6-Naphthyl-(SO3Na)2]32 [SPL-7013] | >16 | >400 | >90.9 | >3.5 | >132 | >205 | >256 |
| Dextran sulfate [reference compound] |  |  | >309 | >46 | >316 | >316 | >316 |
